{
  "source": "paper PMC7038234",
  "about": "“Screening of Natural Extracts for Inhibitors against Japanese Encephalitis Virus Infection” (Antimicrobial Agents and Chemotherapy, 2020)",
  "data": [
    {"test_system": "JEV strain AT31", "conditions": "Primary screening of 1034 compounds in the natural extracts library", "units": {"Inhibition (%)": "%"}, "values": [
      {"smiles": "O=[N+]([O-])c1ccc(-c2csc(CCl)n2)cc1", "Inhibition (%)": -0.6934},
      {"smiles": "COc1cc(CO)ccc1O", "Inhibition (%)": -8.743},
      {"smiles": "COc1cc2c3c(cc4ccccc4c3c1OC)N(C)CC2", "Inhibition (%)": 10.8704},
      {"smiles": "O=S(=O)([O-])[O-].c1c2c(cc3c1OCO3)-c1cc3ccc4c(c3c[n+]1CC2)OCO4.c1c2c(cc3c1OCO3)-c1cc3ccc4c(c3c[n+]1CC2)OCO4", "Inhibition (%)": -4.972},
      {"smiles": "CC1(C)C2CCC1(C)C(O[C@@H]1O[C@H](CO[C@@H]3OCC(O)(CO)[C@H]3O)[C@@H](O)[C@H](O)[C@H]1O)C2", "note": "(stereo partly shown)", "Inhibition (%)": -8.215},
      {"smiles": "O=C(/C=C/c1ccc(O)c(O)c1)OC1CC(O)(C(=O)O)CC(O)C1OC(=O)/C=C/c1ccc(O)c(O)c1", "note": "(stereo not shown)", "Inhibition (%)": 86.3358},
      {"smiles": "O=c1c(O[C@@H]2O[C@H](CO)[C@@H](O)[C@H](O)[C@H]2O)c(-c2ccc(O)c(O)c2)oc2cc(O)cc(O)c12", "Inhibition (%)": 8.905},
      {"smiles": "COc1cc2c(cc1O)CC[n+]1cc3c(OC)c(OC)ccc3cc1-2.[Cl-]", "Inhibition (%)": 14.9639},
      {"smiles": "COC(=O)[C@H](O)[C@@H](NC(=O)c1ccccc1)c1ccccc1", "Inhibition (%)": -15.0308},
      {"smiles": "O=C(/C=C/c1ccc(O)c(O)c1)OCCc1ccccc1", "Inhibition (%)": 10.052},
      {"smiles": "O=c1c(O[C@@H]2O[C@H](CO)[C@@H](O)[C@H](O)[C@H]2O)c(-c2ccc(O)c(O)c2)oc2cc(O[C@@H]3O[C@H](CO[C@@H]4O[C@H](CO)[C@@H](O)[C@H](O)[C@H]4O)[C@@H](O)[C@H](O)[C@H]3O)cc(O)c12", "Inhibition (%)": -6.999},
      {"smiles": "C[C@@H]1O[C@@H](O[C@@H]2[C@@H](O)[C@H](O)[C@@H](CO)O[C@H]2c2c(O)cc(O)c3c(=O)cc(-c4ccc(O)cc4)oc23)[C@H](O)[C@H](O)[C@H]1O", "Inhibition (%)": 8.442},
      {"smiles": "COc1cc(C=O)cc(OC)c1O", "Inhibition (%)": -7.027},
      {"smiles": "CN1[C@H]2C[C@H](OC(=O)[C@H](CO)c3ccccc3)C[C@@H]1[C@@H](O)C2", "note": "(racemic) [Racanisodamine]", "Inhibition (%)": 0.9644},
      {"smiles": "CC=C1[C@H](O[C@@H]2O[C@H](CO)[C@@H](O)[C@H](O)[C@H]2O)OC=C(C(=O)OC)[C@H]1CC(=O)OC[C@H]1O[C@@H](OCCc2ccc(O)cc2)[C@H](O)[C@@H](O)[C@@H]1O", "note": "(stereo in doubt) [Specnuezhenide]", "Inhibition (%)": 3.533},
      {"smiles": "O=C(OC[C@H]1OC(OC(=O)c2cc(O)c(O)c(O)c2)[C@H](OC(=O)c2cc(O)c(O)c(O)c2)[C@@H](OC(=O)c2cc(O)c(O)c(O)c2)[C@@H]1OC(=O)c1cc(O)c(O)c(O)c1)c1cc(O)c(O)c(O)c1", "note": "(stereo partly shown) [1,2,3,4,6-O-pentagalloylglucose]", "Inhibition (%)": 43.1151},
      {"smiles": "COc1ccc(-c2oc3c(CC=C(C)C)c(O)cc(O)c3c(=O)c2O[C@@H]2O[C@@H](C)[C@H](O)[C@@H](O)[C@H]2O[C@@H]2O[C@@H](C)[C@H](O)[C@@H](O)[C@H]2O)cc1", "note": "[2\"-O-rhamnosyl icariside II]", "Inhibition (%)": -28.5906},
      {"smiles": "O=C(O[C@H]1[C@H](Oc2c(-c3ccc(O)c(O)c3)oc3cc(O)cc(O)c3c2=O)O[C@H](CO)[C@H](O)[C@@H]1O)c1cc(O)c(O)c(O)c1", "note": "[2'-O-Galloylhyperin]", "Inhibition (%)": 18.9},
      {"smiles": "CCOC(C)OCCc1ccccc1", "note": "(stereo not shown) [2-(1-Ethoxyethoxy)ethyl)benzene]", "Inhibition (%)": -9.717},
      {"smiles": "CC(=O)O[C@H]1[C@H](OCCc2ccc(O)c(O)c2)O[C@H](CO)[C@@H](OC(=O)/C=C/c2ccc(O)c(O)c2)[C@@H]1O[C@@H]1O[C@@H](C)[C@H](O)[C@@H](O)[C@H]1O", "note": "[2-Acetylacteoside]", "Inhibition (%)": 1.528},
      {"smiles": "O=C1C=C(O)C(=O)c2ccccc21", "note": "[2-Hydroxy-1,4-naphoquinone]", "Inhibition (%)": 6.116},
      {"smiles": "COc1ccccc1C=CC(=O)O", "note": "[2-Methoxycinnamic acid]", "Inhibition (%)": -0.2094},
      {"smiles": "CCCC(C)C(=O)O", "note": "(stereo not shown) [2-Methylvaleric acid]", "Inhibition (%)": 0.04244},
      {"smiles": "O=c1c(-c2ccc(O)c(O)c2)coc2c([C@@H]3O[C@H](CO)[C@@H](O)[C@H](O)[C@H]3O)c(O)ccc12", "note": "[3'-hydroxy Puerarin]", "Inhibition (%)": 9.685},
      {"smiles": "CC1(C)[C@H](OC(=O)c2ccccc2)CC[C@]2(C)C3=C([C@@H](O)C[C@@H]12)[C@@]1(C)CC[C@@]2(C)CC[C@@](C)(COC(=O)c4ccccc4)C[C@H]2[C@]1(C)CC3", "note": "[3,29-Dibenzoyl Rarounitriol]", "Inhibition (%)": 37.212},
      {"smiles": "COc1cc([C@@H]2c3cc4c(cc3[C@@H](O)[C@H]3COC(=O)[C@H]23)OCO4)cc(OC)c1O", "note": "[4'-Demethylepipodophyllotoxin]", "Inhibition (%)": 3.967},
      {"smiles": "CC(=O)CCc1ccc(O)cc1", "note": "[4-(4-Hydroxyphenyl)-2-butanone]", "Inhibition (%)": 24.9997},
      {"smiles": "Cc1ccc(C(C)C)cc1", "note": "[4-Isopropyltoluene]", "Inhibition (%)": 22.7637},
      {"smiles": "O=C1C=CC(=O)c2c(O)cccc21", "note": "[5-Hydroxy-1,4-naphthalenedione]", "Inhibition (%)": 92.5916},
      {"smiles": "O=Cc1ccc(CO)o1", "note": "[5-Hydroxymethylfurfural]", "Inhibition (%)": 8.015},
      {"smiles": "COc1cc(C)c2c(=O)c(-c3ccccc3)coc2c1", "note": "[5-Methyl-7-methoxyisoflavone]", "Inhibition (%)": 50.4184},
      {"smiles": "COc1c2c(cc3oc(C)cc(=O)c13)O[C@H](C(C)(C)O)C2", "note": "[5-O-methylvisamminol]", "Inhibition (%)": -0.6273},
      {"smiles": "C=C[C@@H]1C2=CCOC(=O)C2=CO[C@H]1O[C@@H]1O[C@H](CO[C@@H]2O[C@H](CO)[C@@H](O)[C@H](O)[C@H]2O)[C@@H](O)[C@H](O)[C@H]1O", "note": "[6'-O-β-D-Glucosylgentiopicroside]", "Inhibition (%)": -12.5741},
      {"smiles": "CCCCC/C=C/C(=O)CCc1ccc(O)c(OC)c1", "note": "[6-Shogaol]", "Inhibition (%)": 88.5059},
      {"smiles": "COc1cc(/C=C/C(=O)OC[C@H]2O[C@@H](O[C@@H]3[C@@H](O)[C@H](O)[C@@H](CO)O[C@H]3c3c(OC)cc4oc(-c5ccc(O)cc5)cc(=O)c4c3O)[C@H](O)[C@@H](O)[C@@H]2O)ccc1O", "note": "[6ˊ〞-Feruloylspinosin]", "Inhibition (%)": 9.26},
      {"smiles": "COc1ccc(-c2cc(=O)c3c(O)cc(OC)cc3o2)cc1", "note": "[7,4'-Di-O-methylapigenin]", "Inhibition (%)": 5.028},
      {"smiles": "CC(=O)O[C@H]1C(=O)[C@@]2(C)[C@H]([C@H](OC(=O)c3ccccc3)[C@]3(O)C[C@H](OC(=O)[C@H](O)[C@@H](NC(=O)c4ccccc4)c4ccccc4)C(C)=C1C3(C)C)[C@]1(OC(C)=O)CO[C@@H]1C[C@@H]2O", "note": "[7-Epitaxol]", "Inhibition (%)": 38.1409},
      {"smiles": "CCc1c2c(nc3ccccc13)-c1cc3c(c(=O)n1C2)COC(=O)[C@]3(O)CC", "note": "[7-Ethylcamptothecin]", "Inhibition (%)": -69.3582},
      {"smiles": "COc1ccc2ccc(=O)oc2c1", "note": "[7-Methoxycoumarin]", "Inhibition (%)": -3.6673},
      {"smiles": "CCCCCCC[C@H](O)CC(=O)CCc1ccc(O)c(OC)c1", "note": "[8-Gingerol]", "Inhibition (%)": -15.7251},
      {"smiles": "COC(=O)C1=CO[C@@H](O[C@@H]2O[C@H](CO)[C@@H](O)[C@H](O)[C@H]2O)[C@H]2[C@@H]1[C@H](O)C[C@]2(C)OC(C)=O", "note": "[8-O-Acetyl shanzhiside methyl ester]", "Inhibition (%)": -7.475},
      {"smiles": "CC(=O)O[C@@]12CO[C@@H]1C[C@H](O)[C@@]1(C)C(=O)[C@H](O)C3=C(C)[C@@H](O)C[C@@](O)([C@@H](OC(=O)c4ccccc4)[C@H]21)C3(C)C", "note": "[10-Deacetyl Baccatin]", "Inhibition (%)": 77.214},
      {"smiles": "CCCCCCCCC[C@H](O)CC(=O)CCc1ccc(O)c(OC)c1", "note": "[10-Gingerol]", "Inhibition (%)": -112.021},
      {"smiles": "O=C(O)C=CCCCCCCCO", "note": "[10-Hydroxy-2-decenoic acid]", "Inhibition (%)": 8.183},
      {"smiles": "CC(C)=CCC[C@@](C)(O)[C@H]1CC[C@]2(C)[C@@H]1[C@H](O)C[C@@H]1[C@@]3(C)CC[C@H](O[C@@H]4O[C@H](CO)[C@@H](O)[C@H](O)[C@H]4O)C(C)(C)[C@@H]3CC[C@]12C", "note": "[20(R)-Ginsenoside Rh2]", "Inhibition (%)": 40.7268},
      {"smiles": "CC(C)=CCC[C@@](C)(O)[C@H]1CC[C@]2(C)[C@@H]1[C@H](O)C[C@@H]1[C@@]3(C)CC[C@H](O)C(C)(C)[C@@H]3[C@@H](O[C@@H]3O[C@H](CO)[C@@H](O)[C@H](O)[C@H]3O)C[C@]12C", "note": "[20(R)Ginsenoside Rh1]", "Inhibition (%)": -11.8935},
      {"smiles": "Oc1cc(O)c2c(c1)O[C@H](c1cc(O)c(O)c(O)c1)[C@@H](O)C2", "note": "[(+)-Gallocatechin]", "Inhibition (%)": -5.153},
      {"smiles": "COc1cc2c(cc1O)CCN1Cc3c(ccc(OC)c3OC)C[C@H]21", "note": "[(R)-(+)-Corypalmine]", "Inhibition (%)": 2.107},
      {"smiles": "CCN1C[C@@]2(COC)[C@H]3[C@@H](OC)[C@H]4C1[C@]3([C@@H](OC)C[C@H]2OC(C)=O)[C@@H]1C[C@@]2(O)[C@H](OC(=O)c3ccccc3)[C@@H]1[C@]4(OC(C)=O)[C@@H](O)[C@@H]2OC", "note": "[Acetylaconitine]", "Inhibition (%)": 17.0568},
      {"smiles": "CC(=O)O[C@H]1Cc2cc3c(cc2[C@H]2N(C)Cc4c(ccc5c4OCO5)[C@@]12C)OCO3", "note": "[Acetylcorynoline]", "Inhibition (%)": 19.5944},
      {"smiles": "CC(=O)O[C@@]1(C)C[C@@H](O)[C@]2(O)C=CO[C@@H](O[C@@H]3O[C@H](CO)[C@@H](O)[C@H](O)[C@H]3O)[C@@H]21", "note": "[Acetylharpagide(8-O-Acetylharpagide)]", "Inhibition (%)": 8.712},
      {"smiles": "C=C1C(=O)O[C@@H]2C[C@@]3(C)CCC[C@H](C)C3=C[C@H]12", "note": "[Alantolactone]", "Inhibition (%)": -10.943},
      {"smiles": "CCC(=O)C1=C(O)C(C)(C)C(O)=C(CC2=C(O)C(C)(C)C(O)=C(C(C)=O)C2=O)C1=O", "note": "[Albaspidin AP]", "Inhibition (%)": 7.6572},
      {"smiles": "CC(=O)O[C@H]([C@@H](O)C[C@@H](C)C1=C2C[C@H](O)[C@H]3[C@@]4(C)CCC(=O)C(C)(C)[C@@H]4CC[C@]3(C)[C@@]2(C)CC1)C(C)(C)O", "note": "[Alisol A 24-acetate]", "Inhibition (%)": 81.2833},
      {"smiles": "O=C1c2c(O)cccc2[C@@H]([C@@H]2O[C@H](CO)[C@@H](O)[C@H](O)[C@H]2O)c2cc(CO)cc(O)c21", "note": "[Aloin B]", "Inhibition (%)": -4.345},
      {"smiles": "C=C(C)[C@@H]1CC[C@]2(C(=O)O)CC[C@]3(C)[C@H](CC[C@@H]4[C@@]5(C)CC[C@H](O)[C@@](C)(CO)[C@@H]5CC[C@]43C)[C@@H]12", "note": "[Anemosapoginin]", "Inhibition (%)": 80.744},
      {"smiles": "C=C(C)[C@@H]1CC[C@]2(C(=O)O[C@@H]3O[C@H](CO[C@@H]4O[C@H](CO)[C@@H](O[C@@H]5O[C@@H](C)[C@H](O)[C@@H](O)[C@H]5O)[C@H](O)[C@H]4O)[C@@H](O)[C@H](O)[C@H]3O)CC[C@]3(C)[C@H](CC[C@@H]4[C@@]5(C)CC[C@H](O[C@@H]6OC[C@H](O)[C@H](O)[C@H]6O[C@@H]6O[C@@H](C)[C@H](O)[C@@H](O)[C@H]6O)[C@@](C)(CO)[C@@H]5CC[C@]43C)[C@@H]12", "note": "[Anemoside B4]", "Inhibition (%)": -18.6799},
      {"smiles": "C/C=C(/C)C(=O)OC(=O)/C(C)=C\\C", "note": "[Angelic anhydride]", "Inhibition (%)": 25.9819}
    ]}
  ]
}
